Test results reported in PubChem BioAssay AID540276 (National Center for Advancing Translational Sciences (NCATS), 2011).
The entries are a selection whose mix differs from that of the whole data set. Inconclusive results are not listed. Calls of active or inactive are those of the source. Calls follow the shape of the full dose curve; tested in HEK293 cells.

Experiment: qHTS for inhibitors of binding or entry into cells for Marburg Virus
Conditions: Marburg virus pseudotyped entry inhibition, cell reporter; series mostly up to 46.1 µM; activity change, negative = inhibition: at the top concentration
% is scaled to controls: 0 for no effect and ±100 for the full control effect; potency is read from the fitted curve at half-maximal effect.

Question: For `N/C(=N\O)c1c(N)no[n+]1[O-]`, which “activity change, negative = inhibition” value is on record?
Answer: inactive: 14.6% [at 37.8 µM]

Question: For `O=C(OC1CN2CCC1CC2)C1c2ccccc2C=Cc2ccccc21` (configuration not stated), which Potency is on record?
Answer: active: 18.4 µM

Question: For `O=C1C(O)=C([N+](=O)[O-])C(=O)C(O)=C1[N+](=O)[O-]`, which “activity change, negative = inhibition” value is on record?
Answer: inactive: -20.3%

Question: Which “activity change, negative = inhibition” value does the source give for `O=P1(N(CCCl)CCCl)SCCCS1` here?
Answer: inactive: 7.34%

Question: With `O=C(NCC1(N2CCCCC2)CCCCC1)c1cccc(C(F)(F)F)c1` as the compound, how does the Potency read?
Answer: active: 10 µM

Question: For `O=[N+]([O-])c1cc([N+](=O)[O-])c(OC2CCCCC2O)c([N+](=O)[O-])c1` (configuration not stated), which “activity change, negative = inhibition” value is on record?
Answer: inactive: -7.72% [at 37.8 µM]

Question: With `O=C(OC1CN2CCC1CC2)c1ccc([N+](=O)[O-])cc1` (configuration not stated) as the compound, how does the “activity change, negative = inhibition” value read?
Answer: inactive: -1.18%
